Reference: PMC6627553, “Cardiac Rhythm and Molecular Docking Studies of Ion Channel Ligands with Cardiotoxicity in Zebrafish” (Cells, 2019)

Test system: zebrafish embryos aged 72 hpf
Conditions: in vivo

Niguldipine-HCl [compound 1358]
Atrium and ventricle rhythmicity pattern after 30 min incubation: 1:1 rhythm, but the heart slowed nonetheless
